Measured values published in article PMC6753678, “Fueling Open Innovation for Malaria Transmission-Blocking Drugs: Hundreds of Molecules Targeting Early Parasite Mosquito Stages” (Frontiers in Microbiology, 2019).

System: P. falciparum female gametocytes
Test: P. falciparum female gametogenesis assay (Pf FGAA)
[1] = unified cytotox / Pf FGAA IC50, red: <10-fold selectivity, green: >10-fold
[2] = unified cytotox / Pf FGAA IC50, <10-fold selectivity red, >10-fold green

| Structure (SMILES) | Assay tox ratio Pf FGAA [1] | Assay tox ratio Pf FGAA [2] | other results |
| --- | --- | --- | --- |
| c1ccc(C23N=C(Nc4nc5ccccc5[nH]4)NC2(c2ccccc2)NC(Nc2nc4ccccc4[nH]2)=N3)cc1 (stereo not shown) [TCMDC-139082] | 411.98 | – | – |
| Cl.OC(CNCCCCCCNCC(O)c1ccc(Cl)c(Cl)c1)c1ccc(Cl)c(Cl)c1 (stereo not shown) [TCMDC-141987] | 4.74 | – | – |
| CC(C)(C)c1ccc(CNC(=O)c2ccc(CNC3CCC(N)CC3)s2)cc1 (stereo not shown) [TCMDC-140777] | 3.67 | – | – |
| Cn1c(Nc2cc(C(C)(C)C)on2)nc2cc(Nc3ccnc(Nc4cccc(S(=O)(=O)N5CCOCC5)c4)n3)ccc21 [TCMDC-134098] | – | 6.83 | – |
| CN1CCN(CCCNc2ncc3c(-c4ccc(NC(=O)Nc5cc(C(F)(F)F)ccc5F)c(F)c4)nn(C)c3n2)CC1.O=C(O)C(F)(F)F [TCMDC-141611] | 5.61 | – | – |
| O=C(Nc1ccc(-c2ccccc2)c(OCCN2CCNCC2)c1)c1ccc(-c2ccc(Cl)cc2)cc1 [TCMDC-138818] | 3.60 | – | – |
| CC(Cc1ccc(NS(=O)(=O)c2ccc(CC(C)NCCc3cccc(Cl)c3)cc2)cc1)NCCc1cccc(Cl)c1 (stereo not shown) [TCMDC-139797] | 2.37 | – | – |
| Cc1ccc(Cn2nc(N3CCNCC3)ccc2=O)cc1NC(=O)Nc1ccc(-c2ccccc2)cc1.O=C(O)C(F)(F)F [TCMDC-132580] | – | 3.83 | – |
| Cl.Clc1cc(Br)ccc1-c1ccc(CNCC2CCNCC2)o1 [TCMDC-124617] | – | 6.08 | – |
| Cc1cccc(Nc2nc(N[C@@H]3CCCNC3)nc3cc[nH]c(=O)c23)c1.O=C(O)C(F)(F)F [TCMDC-134835] | – | – | Assay tox ratio Pf FGAA (unified cytotox / IC50, <10-fold red, >10-fold green): 2.12 |
| CCc1c(CCNCCCCCNCCc2ccc(OC)c(OC)c2CC)ccc(OC)c1OC.Cl [TCMDC-132064] | – | 2.28 | – |
| Oc1c(C(Nc2ccccn2)c2ccc(Cl)cc2Cl)ccc2cccnc12 (stereo not shown) [TCMDC-125559] | – | 11.16 | – |
| COc1ccc(CCNCCCCNCCc2ccc(OC)c3ccccc23)c2ccccc12.CS(=O)(=O)O [TCMDC-137961] | – | 4.44 | – |
| CC(C)(CNC(=O)[C@H]1CCCN1)c1nc(-c2ccc(Cl)c(O)c2)c(-c2ccncc2)[nH]1.Cl [TCMDC-141060] | 27.10 | – | – |
| CCN1CCC2(c3cccc(OC)c3)Cc3nc4ccccc4c(-c4ccccc4)c3CC2C1 (stereo not shown) [TCMDC-138968] | 23.25 | – | – |
| COc1cc(OC)cc(C(=O)Nc2nc(-c3ccccn3)cs2)c1 [TCMDC-125345] | – | 111.27 | – |
| Cl.N=C1C=C(N)C(=O)c2ccccc21 [TCMDC-141992] | 0.0437 | – | – |
| Cc1ccc(C(C(=O)Nc2ccc(N3CCNCC3)c(Cl)c2)c2ccccc2)cc1 (stereo not shown) [TCMDC-134292] | – | 18.11 | – |
| O=C(O)C(F)(F)F.c1cc(CN2CCC(CCN3CCCCC3)CC2)cc(-c2csc(-c3nc4ccccc4[nH]3)c2)c1 [TCMDC-133919] | – | 2.87 | – |
| Cc1ccc(-c2nc3cc(NC(=O)c4ccc([N+](=O)[O-])o4)ccc3o2)cc1Cl [TCMDC-123657] | – | 1.27 | – |
| O=S(=O)(Nc1cccc(F)c1CNCc1ccccn1)c1ccc(Cl)c(Cl)c1 [TCMDC-132598] | – | 15.04 | – |
| CNCCNCc1ccc(-c2ccc(-c3nc4cc(C(F)(F)F)ccc4[nH]3)s2)cc1.O=C(O)C(F)(F)F [TCMDC-132838] | – | 4.75 | – |
| CN1CCN(Cc2ccc(-c3cc4c(Nc5ccc(OCc6cccc(F)c6)c(Cl)c5)ncnc4s3)[nH]2)CC1 [TCMDC-135458] | – | 4.56 | – |
| Cc1cc(N)c2cc(NC(=O)/C=C/c3ccc([N+](=O)[O-])cc3)ccc2n1 [TCMDC-139335] | 2.00 | – | – |
| Cc1sc2nc(CN3CCCC3)nc(-n3c(NCCO)nc4ccccc43)c2c1C [TCMDC-124811] | – | 3.65 | – |
